Anti-infective test results gathered from many reports (values: NIAID ChemDB through PubChem).

Common to all: target-level tests

Fold resistance has wild type as its base. ICn: concentration for n% inhibition. Inhibition is in % at the dose shown (toxicity tests: loss of growth or viability). Rows are shuffled and stem from different studies. Two numbers with a dash give a range or band. Blank or dashed fields: not listed here.

structure	strain	changes	dose	target	read by	agent	read-out	result
CN1CCC[C@H]1C(=O)NC(C)(C)C#Cc1ccc(NC(=O)CSc2nnnn2-c2ccc(C3CC3)cc2Cl)c(Cl)c1	WT	-	-	Reverse transcriptase	PicoGreen / fluorescence	HIV-1	IC50	<1 µM
CC1(C)c2nc(C(=O)NCc3ccc(F)cc3)c(O)c(=O)n2CCN1CC(=O)O	-	-	-	Integrase	ELISA	HIV-1	IC50	<10 µM
CC(=O)C[C@H](NC(=O)COc1cccc2ccccc12)C(=O)N[C@@H](Cc1ccccc1)[C@H](O)C(=O)N1CSC[C@H]1C(=O)NC(C)(C)C	-	-	0.05 µM	Protease	-	HIV-1	inhibition	27%
CC(C)(C)c1ccc(-n2nnnc2SCC(=O)Nc2ccc(NC(=O)Cc3c[nH]c4ccccc34)cc2Cl)c(Cl)c1	-	RT-K103 Y181C	-	Reverse transcriptase	PicoGreen / fluorescence	HIV-1	IC50	<1 µM
O=c1c(-c2ncn[nH]2)cn2ccn(Cc3cccc(Cl)c3)c(=O)c2c1O	-	-	-	Integrase	ELISA	HIV-1	IC50	0.01–0.1 µM
CC[C@@H](C)[C@H](NC(=O)CN(CC1CCCCC1)C(=O)[C@@H](O)[C@H](Cc1ccccc1)NC(=O)[C@H](CC(N)=O)NC(=O)OC(C)(C)C)C(=O)NCC1CCCCC1	-	-	1000 µM	Protease	-	HIV-1	inhibition	14.4%
CC(=O)Nc1ccc2c(c1)CN(c1nn3c(C4CC4)nnc3c3ccccc13)CC2	98US_MSC5016	-	-	Reverse transcriptase	RT activity / fluorescence	HIV-1	IC90	0.41 µM
CC(=O)c1cn2ccn(Cc3ccc(F)cc3)c(=O)c2c(O)c1=O	-	-	-	Integrase	ELISA	HIV-1	IC50	<0.01 µM
FC(F)(F)Cc1nnc2c3ccccc3c(N3CCc4ccccc4C3)nn12	KER2008	-	-	Reverse transcriptase	RT activity / fluorescence	HIV-1	IC90	2.54 µM
CC(C)(C#Cc1ccc(NC(=O)CSc2nnnn2-c2ccc(CC3CC3)cc2Cl)c(Cl)c1)C(=O)NCCCN1CCCC1=O	-	RT-K103 Y181C	-	Reverse transcriptase	PicoGreen / fluorescence	HIV-1	IC50	<1 µM
Cc1cn([C@H]2CC[C@@H](COP(=O)(O)OP(=O)(O)OP(=O)(O)O)O2)c(=O)[nH]c1=O	-	-	-	Reverse transcriptase	-	HIV	Ki	0.022 µM
Cc1ccc(-n2nnnc2SCC(=O)Nc2ccc(-c3ccc(CC(=O)O)cc3)cc2Cl)c(Cl)c1	WT	-	-	Reverse transcriptase	PicoGreen / fluorescence	HIV-1	IC50	<1 µM
CC(C)(C)NC(=O)[C@@H]1C[C@@H](O)CCN1C(=O)[C@@H](O)[C@H](Cc1ccccc1)NC(=O)[C@H](CC(N)=O)NC(=O)OCc1ccccc1	-	-	-	Protease	-	HIV-1	IC50	<5 µM
Cc1ccc(-n2nnnc2SCC(=O)Nc2ccc(-c3ccc(CC(N)=O)cc3)cc2[N+](=O)[O-])c(Cl)c1	-	RT-K103 Y181C	-	Reverse transcriptase	PicoGreen / fluorescence	HIV-1	IC50	<1 µM
COc1cc(Cn2ccn3ccc(=O)c(O)c3c2=O)ccc1Cl	-	-	-	Integrase	ELISA	HIV-1	IC50	0.01–0.1 µM
CC(=O)N1CCn2c(nc(C(=O)NCc3ccc(F)cc3)c(O)c2=O)C1C	-	-	-	Integrase	ELISA	HIV-1	IC50	<10 µM
COc1ccnc2[nH]cc(C(=O)C(=O)N3CCN(C(=O)c4ccccc4)C[C@H]3C)c12	NL4-3	GP120-M426L	-	gp120	ELISA	HIV-1	fold resistance	>97
CNC(=O)COC(C)(C)C#Cc1ccc(NC(=O)CSc2nnnn2-c2ccc(C(C)(C)C)cc2Cl)c(Cl)c1	WT	-	-	Reverse transcriptase	PicoGreen / fluorescence	HIV-1	IC50	<1 µM
CC(=O)N1CCn2c(nc(C(=O)NCc3ccc(F)cc3)c(O)c2=O)C(N(C)C(=O)C(=O)N(C)C)C1	-	-	-	Integrase	ELISA	HIV-1	IC50	<10 µM
O=C(O)Cc1ccc(-c2ccc(NC(=O)CSc3nnnn3-c3cc4ccccc4cc3Cl)c(Cl)c2)cc1	WT	-	-	Reverse transcriptase	PicoGreen / fluorescence	HIV-1	IC50	<1 µM
CCCC[C@@H](CN[C@@H](CCC(N)=O)C(=O)N[C@@H](CCCN=C(N)N)C(N)=O)NC(=O)[C@H](CCCC)NC(=O)C(NC(=O)C(NC(C)=O)[C@@H](C)O)[C@@H](C)CC	-	PR-K45I	-	Protease	HPLC	HIV	IC50	>2.17 µM
Cn1nccc1CN1CCn2c(nc(C(=O)NCc3ccc(F)cc3)c(O)c2=O)C1(C)C	-	-	-	Integrase	ELISA	HIV-1	IC50	<10 µM
CC(C)(C)NC(=O)[C@@H]1CSCN1C(=O)[C@@H](O)[C@H](Cc1ccccc1)NC(=O)[C@@H](NC(=O)COc1cccc2ccccc12)C(C)(C)C	-	-	-	Protease	-	HIV-1	IC50	<0.05 µM
CCOCn1c(Sc2ccccc2)c(CC)c(=O)[nH]c1=O	-	RT-F61L	-	Reverse transcriptase	nucleotide incorporation	HIV	IC50	0.107 µM
Nc1ccn([C@H]2CC[C@@H](COP(=O)(O)OP(=O)(O)OP(=O)(O)O)O2)c(=O)n1	-	RT-T215Y	-	Reverse transcriptase	-	HIV	fold resistance	3.33
CC(C)CN(C(=O)C(=O)N(C)C)C1CN(C)CCn2c1nc(C(=O)NCc1ccc(F)cc1)c(O)c2=O	-	-	-	Integrase	ELISA	HIV-1	IC50	<10 µM
c1ccc(-c2nnc3c4ccccc4c(N4CCc5ccccc5C4)nn23)cc1	IIIB	-	-	Reverse transcriptase	RT activity / fluorescence	HIV-1	IC50	48.2 µM
CC(C)(C#Cc1ccc(NC(=O)CSc2nnnn2-c2ccc(C3CC3)cc2Cl)c(Cl)c1)C(=O)NS(=O)(=O)c1ccccc1	-	RT-K103 Y181C	-	Reverse transcriptase	PicoGreen / fluorescence	HIV-1	IC50	<1 µM
CN1CCN(c2cc(N)cc3c2CCN(c2nn4c(C5CC5)nnc4c4ccccc24)C3)CC1	IIIB	-	-	Reverse transcriptase	RT activity / fluorescence	HIV-1	IC50	19.9 µM
Cc1nnc(CN2CCn3c(nc(C(=O)NCc4ccc(F)cc4)c(O)c3=O)C2(C)C)o1	-	-	-	Integrase	ELISA	HIV-1	IC50	<10 µM
Nc1ccn([C@@H]2CS[C@H](COP(=O)(O)OP(=O)(O)OP(=O)(O)O)O2)c(=O)n1	-	RT-K65R K103N	-	Reverse transcriptase	radiometric	HIV	fold resistance	2
CC(C)(N)C#Cc1ccc(NC(=O)CSc2nnnn2-c2cc(C(F)(F)F)cc(C3CC3)c2Cl)c(Cl)c1F	-	RT-K103 Y181C	-	Reverse transcriptase	PicoGreen / fluorescence	HIV-1	IC50	<1 µM
CC(C)(C)OC(=O)N[C@@H](Cc1ccccc1)C(=O)N[C@@H](CO)C(=O)N[C@@H](Cc1ccccc1)[C@H](O)C(=O)NCC1CCCCC1	-	-	1000 µM	Protease	-	HIV-1	inhibition	53%
CN1CCN(NS(=O)(=O)c2ccc(NC(=O)CSc3nnnn3-c3ccc(C4CC4)cc3Cl)c(Cl)c2)CC1	-	RT-K103 Y181C	-	Reverse transcriptase	PicoGreen / fluorescence	HIV-1	IC50	<1 µM
CC(C)(C)OC(=O)N[C@@H](CC(N)=O)C(=O)N[C@@H](Cc1ccccc1)[C@@H](O)C(=O)NCC1CCCCC1	-	-	1000 µM	Protease	-	HIV-1	inhibition	67.2%
O=C(CSc1nnnn1-c1ccc(C2CC2)cc1Cl)Nc1ccc(S(=O)(=O)N2CCC(C(=O)O)CC2)cc1Cl	WT	-	-	Reverse transcriptase	PicoGreen / fluorescence	HIV-1	IC50	<1 µM
CC(=O)CNC(=O)c1cn2c(c(O)c1=O)C(=O)N(Cc1cccc(Cl)c1)CC2	-	-	-	Integrase	ELISA	HIV-1	IC50	0.01–0.1 µM
CC(C)(C#Cc1ccc(NC(=O)CSc2nnnn2-c2ccc(C3CC3)cc2Cl)c(Cl)c1)NC(=O)CN1CCC(O)CC1	WT	-	-	Reverse transcriptase	PicoGreen / fluorescence	HIV-1	IC50	<1 µM
Cc1c(N2CCc3ccccc3C2)nn2c(C)nnc2c1C	98US_MSC5016	-	-	Reverse transcriptase	RT activity / fluorescence	HIV-1	IC90	86.1 µM
CC(C)(C#Cc1ccc(NC(=O)CSc2nnnn2-c2ccc(C3CC3)cc2Cl)c(Cl)c1)OCCNC1CCC1	-	RT-K103 Y181C	-	Reverse transcriptase	PicoGreen / fluorescence	HIV-1	IC50	<1 µM
Cc1nnc2c3ccccc3c(N3CCc4cccnc4C3)nn12	KER2008	-	-	Reverse transcriptase	RT activity / fluorescence	HIV-1	IC90	2.82 µM
CC(C)(C#Cc1ccc(NC(=O)CSc2nnnn2-c2ccc(C3CC3)cc2Cl)c(Cl)c1F)OCCO[n+]1cccc([O-])c1	-	RT-K103 Y181C	-	Reverse transcriptase	PicoGreen / fluorescence	HIV-1	IC50	<1 µM
CS(=O)(=O)Nc1ccc2c(c1)CN(c1nn3c(C4CC4)nnc3c3ccccc13)CC2	IIIB	-	-	Reverse transcriptase	RT activity / fluorescence	HIV-1	IC90	1.77 µM

The last 3 rows once more:

| structure | strain | changes | dose | target | read by | agent | read-out | result |
|---|---|---|---|---|---|---|---|---|
| Cc1nnc2c3ccccc3c(N3CCc4cccnc4C3)nn12 | KER2008 | - | - | Reverse transcriptase | RT activity / fluorescence | HIV-1 | IC90 | 2.82 µM |
| CC(C)(C#Cc1ccc(NC(=O)CSc2nnnn2-c2ccc(C3CC3)cc2Cl)c(Cl)c1F)OCCO[n+]1cccc([O-])c1 | - | RT-K103 Y181C | - | Reverse transcriptase | PicoGreen / fluorescence | HIV-1 | IC50 | <1 µM |
| CS(=O)(=O)Nc1ccc2c(c1)CN(c1nn3c(C4CC4)nnc3c3ccccc13)CC2 | IIIB | - | - | Reverse transcriptase | RT activity / fluorescence | HIV-1 | IC90 | 1.77 µM |